Measured values as given in PubChem BioAssay AID504423 (Broad Institute, 2011).
The entries are a selection whose mix differs from that of the whole data set. Active and inactive are the calls of the source.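 Rule for the calls: active = highest replicate inhibition at or above 60% at 9 µM, even if other replicates fall short; inactive = all replicates below 60% inhibition.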

tested on: Kaposi's sarcoma herpesvirus LANA C-terminal domain (residues 932-1162) DNA binding; experiment: inhibitors of KSHV C-LANA binding to DNA, primary screen, biochemical, fluorescence polarization, FAM-LBS DNA, MBP-C-LANA, single point (AID 504423); conditions: at 9 µM, hits give high values;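 note: 0% = neutral control wells and 100% = 4 µM acridine orange control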

Structure (SMILES) | inhibition
CS(=O)(=O)c1ccc(Cl)c(NC(=O)COC(=O)C(O)(c2ccccc2)c2ccccc2)c1 | inactive: 0.798%
O=[As](O)(O)c1cccnc1 | inactive: -1.62%
COc1cc(C(=O)NCC2(N3CCOCC3)CCCCC2)cc(Cl)c1OC(C)C | inactive: 1.77%
Cc1cccc(OCC(=O)OC2CN3CCC2CC3)c1 (centres undefined) | inactive: 0.828%
O=[As](O)(c1cccc(O)c1)c1cccc(O)c1 | inactive: 1.36%
Nc1cccc2c([As](=O)(O)O)cccc12 | inactive: -2.63%
Cc1ccc(NCCc2c([N+](=O)[O-])cc([N+](=O)[O-])cc2[N+](=O)[O-])cc1 | inactive: -1.04%
CCCOP(=S)(Nc1nc(N)cc(=O)[nH]1)OCCC | inactive: 4.24%
CCOP(=O)(Nc1cccc2ccccc12)OCC | inactive: 0.376%
COc1cc(C2NCCC3(OCCO3)C2(C)C)cc(OC)c1OC (centres undefined) | inactive: 0.992%
O=P(Nc1nccs1)(Oc1ccccc1)Oc1ccccc1 | inactive: 0.785%
O=P(Nc1nccs1)(c1ccccc1)c1nc2ccccc2s1 (centres undefined) | inactive: 3%
CCOP1(=S)c2c(C)nn(CCC#N)c2N=C(c2ccccc2F)N1C (centres undefined) | inactive: 2.22%
CS(=O)(=O)c1cc([N+](=O)[O-])c2no[n+]([O-])c2c1 | inactive: 2.4%
O=C(O)COc1ccc([As](=O)(O)O)cc1[N+](=O)[O-] | inactive: -0.796%
Nc1ccccc1[As](=O)(O)c1ccccc1 | inactive: 1.3%
NC(=O)Nc1ccc([As](=O)(O)O)cc1 | inactive: 0.486%
CCOP1(=S)c2c(C)nn(CCC#N)c2N=C(c2ccc(F)cc2)N1C (centres undefined) | inactive: -0.853%
CN(C(=O)Cc1ccccc1)[C@@H]1CC[C@]2(CCCO2)C[C@H]1N1CCCC1 | inactive: -2.44%
N#CCCN(C(=O)COC(=O)C(O)(c1ccccc1)c1ccccc1)c1ccc(F)cc1 | inactive: -0.513%

Structure (SMILES) | inhibition
CN(C(=O)Cc1ccc(Cl)c(Cl)c1)[C@H]1CC[C@@]2(CCCO2)C[C@@H]1N1CCCC1 | inactive: -1.81%
O=[N+]([O-])c1ccc2c(c1)nnn2O | inactive: -2.38%
CN(C)C(=O)c1cc([N+](=O)[O-])cc2c1-c1c(cc([N+](=O)[O-])cc1[N+](=O)[O-])C2=O | inactive: 1.36%
O=[N+]([O-])c1ccc(-c2cc([N+](=O)[O-])c(O)c([N+](=O)[O-])c2)cc1 | inactive: 1.02%
COc1cc(C(=O)NCC2(N3CCOCC3)CCCCC2)ccc1OCC(C)C | inactive: 0.324%
C[As](=O)(O)c1cccc(C(=O)O)c1 | inactive: -1.69%
O=[As](O)(c1ccc(O)cc1)c1ccccc1O | inactive: -5.11%
Cc1ccc(OP(=O)(Nc2ccc([N+](=O)[O-])cn2)Oc2ccc(C)cc2)cc1 | inactive: 2.54%
Cc1ccc2nc3c(c(C)c2c1)CC(C(Cl)Cl)S3 (centres undefined) | inactive: 2.04%
ClCCSc1nnc(-c2cccnc2)o1 | inactive: -0.333%
COC(=O)C1(C)COP(=O)(N2CCCCCC2)OC1 (centres undefined) | inactive: -0.852%
CC(C)c1ccc(OP(=O)(Nc2ccccn2)Oc2ccccc2F)cc1 (centres undefined) | inactive: -1.4%
O=[N+]([O-])c1cc([N+](=O)[O-])c(-c2ccn[nH]2)s1 | inactive: 0.28%
CC(C)NC(=O)NP(=O)(Oc1ccccc1)Oc1ccccc1 | inactive: 1.7%
O=C(OC1CN2CCC1CC2)c1cccc2[nH]cnc12 (centres undefined) | inactive: 1.19%
CCN(CC)C(=S)SC(NC=O)C(Cl)(Cl)Cl (centres undefined) | inactive: -0.247%
Cc1c2c(nc3ccccc13)SC(C(Cl)Cl)C2 (centres undefined) | inactive: -0.623%
Cc1cc(=O)[nH]c(N[N+](=O)[O-])n1 | inactive: -1.66%
O=C(OC1CN2CCC1CC2)C12CC3CC(CC(C3)C1)C2 (centres undefined) | inactive: -0.0656%
O=P1(N(CCCl)CCCl)OCCCN1CCCl (centres undefined) | inactive: -0.193%

Structure (SMILES) | inhibition
O=P1(N(CCCl)CCCl)Nc2ccccc2N1 | inactive: 1.46%
COc1cc(I)ccc1[As](=O)(O)O | inactive: -0.627%
COc1ccc2nc(NP(=O)(c3ccccc3)c3ccccc3)sc2c1 | inactive: 0.0677%
O=[N+]([O-])c1cc(Oc2ccc([N+](=O)[O-])cc2C(F)(F)F)cc([N+](=O)[O-])c1 | inactive: 2.5%
COc1ccc(N/C(=N/P(=O)(N2CCOCC2)N2CCOCC2)N2CCOCC2)cc1 | inactive: 2.21%
COP1(=S)c2c(C)nn(CCC#N)c2N=C(c2ccc(F)cc2)N1C (centres undefined) | inactive: 1.32%
O=C(Nc1ccncc1[N+](=O)[O-])c1ccc([N+](=O)[O-])cc1[N+](=O)[O-] | inactive: -1.79%
O=C(COc1ccccc1)OC1CN2CCC1CC2 (centres undefined) | inactive: 1.26%
O=C(OC1CN2CCC1CC2)c1cccc([N+](=O)[O-])c1 (centres undefined) | inactive: 0.00816%
CCOC(=O)c1ccc(NC(=O)C(C)(CCl)SC)cc1 (centres undefined) | inactive: 0.807%
CCC(C)N(CC(C)C)C(=S)SC(NC(C)=O)C(Cl)(Cl)Cl (centres undefined) | inactive: -0.253%
CCOC(=O)Nc1ccc([As](=O)(O)O)c(O)c1 | inactive: -1.21%
CC1CCNP(=O)(N(CCCl)CCCl)O1 (centres undefined) | inactive: 0.144%
Cc1cc(SC(NC(=O)c2ccccc2)C(Cl)(Cl)Cl)nc(C(C)C)n1 (centres undefined) | inactive: -0.254%
CCCCOc1ccc(C(=O)NCC2(N3CCCCC3)CCCCC2)cc1OC | inactive: -0.371%
CCOC(=O)Nc1cccc([As](=O)(O)O)c1 | inactive: 0.0562%
Cc1cc(SC(NC=O)C(Cl)(Cl)Cl)ncn1 (centres undefined) | inactive: -0.79%
O=P(Nc1ccccn1)(c1cccc2ccccc12)c1cccc2ccccc12 | inactive: -0.733%
O=[N+]([O-])c1ccc(Nc2ccc(Oc3ccc([N+](=O)[O-])cc3[N+](=O)[O-])cc2)c([N+](=O)[O-])c1 | inactive: -0.0947%
